Test results taken from patent US12194140B2, “Compositions for topical treatment of microbial infections” (Hennepin Life Sciences, priority 2012, dated 2025).

Columns and labels:
[1] = system: TSST-1 production by S. aureus MN8; experiment: Inhibition of superantigen production (Western immunoblot); details: 8 hours culture; not growth inhibitory
[2] = system: streptococcal pyrogenic exotoxin A (SPE A) production by S. pyogenes; experiment: as above; details: 8 hours culture; not growth inhibitory
P. aeruginosa = details: GML >2000 μg/ml, pH 7.0
[3] = system: exotoxin production of Staphylococcus aureus, Streptococcus pyogenes, Streptococcus agalactiae, groups C, F, and G streptococci, and Clostridium perfringens; experiment: Inhibition of exotoxin production in gram-positive bacteria; details: all gram-positive organisms tested

Compound	concentration inhibiting production of TSST-1 [1] [µg/mL]	concentration inhibiting production of SPE A [2] [µg/mL]	development of resistance (growth on 100 μg/mL GML plates) (S. aureus strain MN8; weekly passage on 50 μg/mL GML for one year)	mutants with upregulated GEH production (S. aureus strain MN8; year of passage, data not shown)	production of virulence factors (P. aeruginosa)	exotoxin production [3]
CCCCCCCCCCCC(=O)O	2.5	2.5				
Glycerol monolaurate	0.2	0.025	did not develop resistance	no mutants that had upregulated GEH production	up-regulated production of numerous virulence factors including pigments	inhibited exotoxin production independently from inhibition of growth
